Target: esr1_human ESR1 (UniProt P03372)

## Ras-related C3 botulinum toxin substrate 3 (Homo sapiens) (from UniProt P60763) S151A
  effect of a mutation on the interaction: decreasing interaction

From IntAct's records for PubMed 21217774
